# Reference: PubChem BioAssay AID720706 (Broad Institute, 2013)
# The list shows a part of the results, in another mix than the full data. Activity calls are given as the source filed them.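 How the source made its calls: active means significant combined selectivity score with lowered wild-type GFP, culture density cut under 30%, mutant RFP and density less affected; inactive means any of these conditions unmet.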
# Experiment: reduced GFP signal of wild-type E. coli, primary screen, bacterial rRNA inhibitor project, GFP/RFP fluorescence, OD600, single point (AID 720706)
# Conditions: E. coli WT GFP vs humanized-ribosome RFP mutants, 24 h, active compounds read low, DMSO median 0, no signal -100
row,Compound,GFP signal change (wild-type ribosome)
1,CCOC(=O)N1CCC(Nc2ccc(F)cc2)CC1,inactive: 13.1%
2,O=C(NCC1(N2CCCCC2)CCCCC1)c1ccc(F)cc1,inactive: 2.59%
3,CCCCn1nnnc1C(c1cc2ccccc2o1)N1CCC(n2c(=O)[nH]c3ccccc32)CC1 (stereo not given),inactive: 3.3%
4,O=P1(N(CCCl)CCCl)SCCCS1,inactive: 14.6%
5,CCCCOc1ccc(C(=O)NCC2(N3CCOCC3)CCCCC2)cc1,inactive: 0.635%
6,CC(C)(C)n1nnnc1C(c1ccccc1)N1CCC(n2c(=O)[nH]c3ccccc32)CC1 (stereo not given),inactive: 1.96%
7,COc1cc(C(=O)NCC2(N(C)C)CCCCC2)ccc1OC(F)F,inactive: 6.78%
8,CCOC(=O)N1CCC(Nc2cccc(C)c2)CC1,inactive: 5.58%
9,O=c1[nH]c2ccccc2n1C1CCN(C(c2cccc3ccccc23)c2nnnn2C2CCCC2)CC1 (stereo not given),inactive: 7.97%
10,O=c1[nH]c2ccccc2n1C1CCN(C(c2ccccc2)c2nnnn2C2CCCCC2)CC1 (stereo not given),inactive: 16.8%
11,Cc1cccc(NC2(C#N)CCN(Cc3ccccc3)CC2)c1,inactive: 12.1%
12,CCC(c1nnnn1C1CCCC1)N1CCC(n2c(=O)[nH]c3ccccc32)CC1 (stereo not given),inactive: 1.09%
13,COc1ccc(C(=O)NCC2(N3CCCCC3)CCCCC2)c(OC)c1OC,inactive: 10%
14,CC(C)(C)OC(=O)N1CCC(N(C(=O)c2ccccc2)c2ccc(F)cc2)CC1,inactive: 3.61%
15,COc1ccc(C(=O)NCC2(N3CCCCC3)CCCCC2)cc1,inactive: 9.14%
16,CCCCn1nnnc1C(c1cccs1)N1CCC(n2c(=O)[nH]c3ccccc32)CC1 (stereo not given),inactive: -24.4%
17,CCCCn1nnnc1C(CC)N1CCC(n2c(=O)[nH]c3ccccc32)CC1 (stereo not given),inactive: -12%
18,O=C(NCC1(N2CCCCC2)CCCCC1)c1cccs1,inactive: 14.1%
19,O=C(NCC1(N2CCCCC2)CCCCC1)c1ccc(=O)[nH]c1,inactive: 5.68%
20,COc1ccc(Cl)cc1C(=O)NCC1(N2CCOCC2)CCCCC1,inactive: -5.21%

row,Compound,GFP signal change (wild-type ribosome)
1,O=C(OC1CN2CCC1CC2)C1c2ccccc2Oc2ccccc21 (stereo not given),inactive: -8.68%
2,O=c1[nH]c2ccccc2n1C1CCN(C(c2cc3ccccc3o2)c2nnnn2C2CCCCC2)CC1 (stereo not given),inactive: 10.9%
3,O=C(NCC1(N2CCCCC2)CCCCC1)c1ccc(Cl)s1,inactive: 17.9%
4,N#CC1(Nc2ccccc2)CCN(Cc2ccccc2)CC1,inactive: 22.5%
5,CCCCn1nnnc1C(c1ccc(OC)cc1)N1CCC(n2c(=O)[nH]c3ccccc32)CC1 (stereo not given),inactive: -5.68%
6,CCOC(=O)N1CCC(Nc2ccc(OC)cc2)CC1,inactive: 8.55%
7,Cc1cc(C)cc(N(C(=O)c2ccccc2)C2CCN(C(=O)OC(C)(C)C)CC2)c1,inactive: -1.56%
8,O=c1[nH]c2ccccc2n1C1CCN(C(c2ccccc2OC(F)(F)F)c2nnnn2C2CCCCC2)CC1 (stereo not given),inactive: 14.6%
9,O=C(NCC1(N2CCCCC2)CCCCC1)c1ccc(Cl)nc1,inactive: 5.86%
10,CCC(c1nnnn1C(C)(C)C)N1CCC(n2c(=O)[nH]c3ccccc32)CC1 (stereo not given),inactive: 15.9%
11,O=C(NCC1(N2CCOCC2)CCCCC1)c1cc(F)c(F)cc1Cl,inactive: 6.1%
12,COc1cc(OC)c(C(=O)NCC2(N(C)C)CCCCC2)cc1OC,inactive: 5.81%
13,CCCCn1nnnc1C(c1ccnc2ccccc12)N1CCC(n2c(=O)[nH]c3ccccc32)CC1 (stereo not given),inactive: -7.97%
14,CC(C)c1ccc(NC2CCN(C(=O)OC(C)(C)C)CC2)cc1,inactive: -2.83%
15,CN(C)c1cccc(C(=O)NCC2(N3CCCCC3)CCCCC2)c1,inactive: 12.3%
16,COc1ccc(CN(CCCl)CCCl)cc1Cl,inactive: 6.28%
17,COc1ccc(C(c2nnnn2C2CCCC2)N2CCC(n3c(=O)[nH]c4ccccc43)CC2)cc1 (stereo not given),inactive: 1.8%
18,CCCOc1ccc(C(=O)NCC2(N(C)C)CCCCC2)cc1OC,inactive: 10.8%
19,Cc1ccc(C(=O)NCC2(N(C)C)CCCCC2)o1,inactive: 6.15%
20,O=C(NCC1(N2CCCCC2)CCCCC1)c1cncc(Br)c1,inactive: 2.91%

row,Compound,GFP signal change (wild-type ribosome)
1,CN1CCC(Nc2cccc(F)c2)CC1,inactive: 21.3%
2,O=c1[nH]c2ccccc2n1C1CCN(C(c2ccccc2OC(F)(F)F)c2nnnn2C2CCCC2)CC1 (stereo not given),inactive: 24.2%
3,CCN1CCC(Nc2ccc(Cl)cc2)CC1,inactive: 9.09%
4,O=C(NCC1(N2CCCCC2)CCCCC1)c1cccc([N+](=O)[O-])c1,inactive: 18.7%
5,CSc1ccc(C(=O)NCC2(N3CCOCC3)CCCCC2)cc1,inactive: -0.625%
6,CC(C)(C)n1nnnc1C(c1ccccc1OC(F)(F)F)N1CCC(n2c(=O)[nH]c3ccccc32)CC1 (stereo not given),inactive: 20.8%
7,COc1cc(C(=O)NCC2(N3CCCCC3)CCCCC2)ccc1OC(F)F,inactive: 12.2%
8,CCCCn1nnnc1C(c1cccc2ccccc12)N1CCC(n2c(=O)[nH]c3ccccc32)CC1 (stereo not given),inactive: 5.02%
9,CN1CCN(CCOC(=O)C(O)(c2ccccc2)c2ccccc2)CC1,inactive: 5.19%
10,COc1ccc(NC2CCN(C(=O)OC(C)(C)C)CC2)cc1,inactive: 7.86%
11,CC(C)c1ccc(C(=O)NCC2(N3CCOCC3)CCCCC2)cc1,inactive: -0.496%
12,O=C(NCC1(N2CCCCC2)CCCCC1)c1cccc(C(F)(F)F)c1,inactive: -0.07%
13,N#Cc1ccc(C(=O)NCC2(N3CCCCC3)CCCCC2)cc1,inactive: 6.96%
14,CC(C)(C)OC(=O)N1CCC(N(C(=O)c2ccccc2)c2ccc(Cl)cc2)CC1,inactive: 0.57%
15,CC(C)(C)n1nnnc1C(c1cccc2ccccc12)N1CCC(n2c(=O)[nH]c3ccccc32)CC1 (stereo not given),inactive: 20.5%
16,CN(C)C1(CNC(=O)c2cccc(C#N)c2)CCCCC1,inactive: 9.43%
17,O=c1[nH]c2ccccc2n1C1CCN(C(c2ccccc2)c2nnnn2C2CCCC2)CC1 (stereo not given),inactive: -5.77%
18,CCCN1CCC(Nc2cc(OC)cc(OC)c2)CC1,inactive: 80.3%
19,Cc1cc(N(CCCl)CCCl)ccc1C=O,inactive: -9.17%
20,C/C(N)=N\P(=O)(Oc1ccccc1)Oc1ccccc1,inactive: 1.68%
